A mixed list of measured activities; the numbers were collected in NIAID ChemDB.

All rows: tests in culture; species: Mycobacterium marinum; read-out: MIC

Rows are shuffled and stem from different studies. Blank or dashed fields: not listed here.

structure,strain or isolate,read by,value
CCCCCCCCCCCCCCCCCCCCCCOC(=O)NC(C)(CCC(=O)O)CCC(=O)O,ATCC 927,,394 µg/mL
COc1ccc(-c2c(-c3ccc(OCc4ccccc4)cc3O)n[nH]c2C(F)(F)F)cc1,,visual reading,12.5 µg/mL
C=C1C(=O)[C@@]23C(=O)O[C@H]4CCC(C)(C)[C@H]5[C@H](O)OC[C@@]45[C@@H]2CC[C@@H]1[C@H]3OC(=O)c1ccccc1,ATCC 927,resazurin,4 µg/mL
CC[C@H]1OC(=O)[C@H](C)[C@@H](O[C@H]2C[C@@](C)(OC)[C@@H](O)[C@H](C)O2)[C@H](C)[C@@H](O[C@@H]2O[C@H](C)C[C@H](N(C)C)[C@H]2O)[C@](C)(OC)C[C@@H](C)C(=O)[C@H](C)[C@@H](O)[C@]1(C)O,ATCC 927,,1.6 µg/mL
C=C1C(=O)[C@@]23C(=O)O[C@H]4CCC(C)(C)[C@H]5[C@H](O)OC[C@@]45[C@@H]2CC[C@@H]1[C@H]3OC(=O)c1cnccn1,ATCC 927,resazurin,>64 µg/mL
Cc1c(C)c(C)[c-](C)c1C.N[C@H](C(=O)[O-])c1ccccc1.[Cl][Rh+2],ATCC 927,,>250 µg/mL
CCCCCCCCCCCCCCCOC(=O)NC(CCC(=O)O)(CCC(=O)O)CCC(=O)O,ATCC 927,,216 µg/mL
COc1ccc(-c2n[nH]c(C)c2-c2ccc(Cl)cc2)c(O)c1,,visual reading,50 µg/mL
CCCCCCCCCC(CCCCCCCCC)OC(=O)NC(CCC(=O)O)(CCC(=O)O)CCC(=O)O,ATCC 927,,285 µg/mL
CCOc1ccc(-c2n[nH]c(C(F)(F)F)c2-c2ccc(Br)cc2)c(O)c1,,visual reading,50 µg/mL
C=C1C(=O)[C@@]23C(CC[C@@H]1[C@H]2OC(=O)c1ccc(F)cc1)[C@@]12COC3(O)[C@@H](O)[C@@H]1C(C)(C)CC[C@@H]2OC(C)=O,ATCC 927,resazurin,8 µg/mL
CCCCCOc1ccc(-c2n[nH]c(C(F)(F)F)c2-c2ccccc2Cl)c(O)c1,,visual reading,50 µg/mL
C[C@@H]1CN(c2c(F)c(N)c3c(=O)c(C(=O)O)cn(C4CC4)c3c2F)C[C@H](C)N1,ATCC 927,broth dilution / visual reading,2 µg/mL
Cc1[nH]nc(-c2ccc(O)cc2O)c1-c1ccc(Br)cc1,,visual reading,50 µg/mL
CCCCCCCCCCCCCCCCCCCCCCC(=O)NC(C)(CCC(=O)O)CCC(=O)O,ATCC 927,,5 µg/mL